In ChEMBL document CHEMBL3352719 (Bioorg Med Chem, 2014):
pEC50, pIC50: −log10 of the molar value.

What was measured:
[1] = target: Neuraminidase (Influenza A virus (strain A/Wilson-Smith/1933 H1N1) (Influenza A virus(strain A/WS/1933 H1N1)), UniProt P03470, H275Y); test: Inhibition of Influenza A virus A/WSN/1933(H1N1) neuraminidase H275Y mutant using 2-(4-methylumbelliferyl)-alpha-D-N-acetylneuraminic acid after 15 mins by fluorescent assay
[2] = Antiviral activity against Influenza A virus A/WSN/1933(H1N1) harboring neuraminidase H275Y mutant infected in MDCK cells assessed as virus-mediated cytopathic effect after 48 hrs by CellTiter96 assay

CCC(CC)O[C@@H]1C=C(C(=O)NS(=O)(=O)C(F)(F)F)C[C@H](N)[C@H]1NC(C)=O
IC50 [1]: Not Active | EC50 [2]: Not Active

CCC(CC)O[C@@H]1C=C(C(=O)NOCCCc2cc3ccccc3[nH]2)C[C@H](N)[C@H]1NC(C)=O
pIC50 [1]: 5.96 | EC50 [2]: Not Active

CCC(CC)O[C@@H]1C=C(C(=O)NS(=O)(=O)c2ccccc2)C[C@H](N)[C@H]1NC(C)=O
IC50 [1]: Not Active | EC50 [2]: Not Active

CCCCS(=O)(=O)NC(=O)C1=C[C@@H](OC(CC)CC)[C@H](NC(C)=O)[C@@H](NC(=N)N)C1
pIC50 [1]: 5.96 | EC50 [2]: Not Active

CCC(CC)O[C@@H]1C=C(C(=O)NS(=O)(=O)c2ccccc2)C[C@H](NC(=N)N)[C@H]1NC(C)=O
pIC50 [1]: 4.87 | EC50 [2]: Not Active

CCCCS(=O)(=O)NC(=O)C1=C[C@@H](OC(CC)CC)[C@H](NC(C)=O)[C@@H](N)C1
IC50 [1]: Not Active | EC50 [2]: Not Active

CCC(CC)O[C@@H]1C=C(C(=O)NS(C)(=O)=O)C[C@H](N)[C@H]1NC(C)=O
pIC50 [1]: 4.72 | EC50 [2]: Not Active

CCC(CC)O[C@@H]1C=C(C(=O)NOC)C[C@H](N)[C@H]1NC(C)=O
pIC50 [1]: 5.18 | EC50 [2]: Not Active

CCC(CC)O[C@@H]1C=C(C(=O)NOCc2ccccc2)C[C@H](N)[C@H]1NC(C)=O
pIC50 [1]: 6.00 | EC50 [2]: Not Active

CCC(CC)O[C@@H]1C=C(C(=O)NOCc2ccccc2)C[C@H](NC(=N)N)[C@H]1NC(C)=O
pIC50 [1]: 5.16 | pEC50 [2]: 4.79

CCC(CC)O[C@@H]1C=C(C(=O)O)C[C@H](N)[C@H]1NC(C)=O [OSELTAMIVIR CARBOXYLATE]
pEC50 [2]: 4.96

CCC(CC)O[C@@H]1C=C(C(=O)NOCCCc2cc3ccccc3[nH]2)C[C@H](NC(=N)N)[C@H]1NC(C)=O
pIC50 [1]: 5.91 | pEC50 [2]: 5.64

CCC(CC)O[C@@H]1C=C(C(=O)NOC)C[C@H](NC(=N)N)[C@H]1NC(C)=O
pIC50 [1]: 6.11 | pEC50 [2]: 5.56

CCC(CC)O[C@@H]1C=C(C(=O)NO)C[C@H](N)[C@H]1NC(C)=O
IC50 [1]: Not Active | EC50 [2]: Not Active

CCC(CC)O[C@@H]1C=C(C(=O)NS(C)(=O)=O)C[C@H](NC(=N)N)[C@H]1NC(C)=O
pIC50 [1]: 7.71 | pEC50 [2]: 5.16

CCC(CC)O[C@@H]1C=C(C(=O)NS(=O)(=O)C(F)(F)F)C[C@H](NC(=N)N)[C@H]1NC(C)=O
pIC50 [1]: 6.08 | EC50 [2]: Not Active
